PubChem BioAssay AID504761 | Drosophila RNAi Screening Center, 2011
Test: 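Genome-wide fly cell screen for genes dengue virus requires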 (primary screen). Cells: D.Mel-2 cells from Drosophila. Knock-down reagent: long dsRNA against Drosophila genes. Challenge: infection with dengue virus type 2; dose and infection time not stated. Measured: 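Per well on two replicate plates, imaging gave the percent of cells positive for viral envelope protein, ranked by infection, and a nuclear count of cells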. Reading the numbers: infection score: higher = more virus-infected cells. Call rule: 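Low infection ranks in the two replicates (chance level up to 0.065) followed by a retest with a 1.5-fold or larger significant decrease, p below 0.05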. Calls: active = confirmed: knock-down lowers infection; inactive = not picked or not confirmed.
The screen tested about 22,000 reagents; this is an unselected part of those that have a named target and a result. Over the whole deposit, 116 (0.52%) are marked active. 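Calls depend on retest data that are not deposited; infection was ranked per plate without normalising between plates; the unit of the infection score is not given.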 A number with no mark means an inactive call. Not all columns of the deposit are shown. The record does not give: the amount of reagent, the time to read-out.

target | PubChem SID | infection score, replicate 1 | infection score, replicate 2
wat | SID104194646 | 3.78 | 7.95
CG43902 | SID104197791 | 5.07 | 6.11
CG43902 | SID104203610 | 7.62 | 2.5
SNCF | SID104189907 | 2.59 | 2.85
CG2540 | SID104199648 | 5.81 | 22
EloA | SID104195901 | 5.78 | 12.8
EloA | SID104202944 | 1.4 | 3.03
CG32984 | SID104201306 | 0.46 | 10.8
CG32984 | SID104207801 | 13 | 23.2
beta-Man | SID104192000 | 11.8 | 4.76
beta-Man | SID104192001 | 0.61 | 1.44
CG3556 | SID104198101 | 11.7 | 2.9
CG3556 | SID104205909 | 3.23 | 34.3
Gem2 | SID104189513 | 0.98 | 6.64
CG6726 | SID104195893 | 0.63 | 0.64
CG6726 | SID104206674 | 17.7 | 27.9
CG32119 | SID104189040 | 13.3 | 6.43
CG32119 | SID104201200 | 2.71 | 1.14
CG32119 | SID104207666 | 4.41 | –
CG9328 | SID104182995 | 13.2 | 5.41
Cox11 | SID104202081 | 9.5 | 6.71
mei-W68 | SID104187441 | 3.44 | 0.82
Srlp | SID104195682 | 10.9 | 17.7

Entries above whose target name starts with B or b (2):
target | PubChem SID | infection score, replicate 1 | infection score, replicate 2
beta-Man | SID104192000 | 11.8 | 4.76
beta-Man | SID104192001 | 0.61 | 1.44
